{"source": "PubChem BioAssay AID624099 (ICCB-Longwood, 2012)", "assay": "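Knock-downs relieving repression by E2 of an HPV18 LCR luciferase reporter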 (primary screen)", "cells": "human C33A cervical carcinoma cells (HPV-negative) stably expressing BPV1 E2 and an HPV18 LCR luciferase reporter", "knock-down reagent": "siRNA pool against human genes, 40 nM", "duration": "72 h", "measured": "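HPV18 LCR reporter light per well, converted to plate-wise z-scores that exclude control wells, and averaged over triplicate plates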", "scale": "mean z-score and z-score: higher = stronger reporter signal, weaker E2 silencing", "rule for the call": "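Mean z ≥ 2 together with z ≥ 2 in two or more of the three replicates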", "note": "Shown is a random part of about 21,000 deposited reagents. Of all reagents, 497 (2.4%) are marked active. 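Higher z means weaker E2 silencing; only reporter increases were scored, and knock-downs that hurt cell survival may mask genuine repressor factors.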"}
{"Gene":"C5orf34","PubChem SID":"SID134329330","mean z-score":-0.82,"z-score, replicate A":-0.86,"z-score, replicate B":-0.8,"z-score, replicate C":-0.8,"Outcome":"inactive"}
{"Gene":"GSTM4","PubChem SID":"SID134321138","mean z-score":0.32,"z-score, replicate A":-0.07,"z-score, replicate B":0.62,"z-score, replicate C":0.41,"Outcome":"inactive"}
{"Gene":"MAD2L2","PubChem SID":"SID134309829","mean z-score":-0.02,"z-score, replicate A":0.34,"z-score, replicate B":-0.41,"z-score, replicate C":0.02,"Outcome":"inactive"}
{"Gene":"HIVEP2","PubChem SID":"SID134319370","mean z-score":1.56,"z-score, replicate A":2.05,"z-score, replicate B":1.29,"z-score, replicate C":1.34,"Outcome":"inactive"}
{"Gene":"CEP120","PubChem SID":"SID134320483","mean z-score":-0.1,"z-score, replicate A":-0.23,"z-score, replicate B":-0.07,"z-score, replicate C":0.02,"Outcome":"inactive"}
{"Gene":"PDE8B","PubChem SID":"SID134312700","mean z-score":0.04,"z-score, replicate A":0.27,"z-score, replicate B":-0.12,"z-score, replicate C":-0.05,"Outcome":"inactive"}
{"Gene":"ACTR3","PubChem SID":"SID134316374","mean z-score":-0.18,"z-score, replicate A":-0.38,"z-score, replicate B":-0.07,"z-score, replicate C":-0.1,"Outcome":"inactive"}
{"Gene":"MRPS7","PubChem SID":"SID134317800","mean z-score":2.24,"z-score, replicate B":1.97,"z-score, replicate C":2.52,"Outcome":"inactive"}
{"Gene":"TPD52","PubChem SID":"SID134323661","mean z-score":-0.79,"z-score, replicate A":-0.18,"z-score, replicate B":-1.03,"z-score, replicate C":-1.17,"Outcome":"inactive"}
{"Gene":"OR4F4","PubChem SID":"SID134329839","mean z-score":0.38,"z-score, replicate A":0.8,"z-score, replicate B":0.26,"z-score, replicate C":0.08,"Outcome":"inactive"}
{"Gene":"LOC400125 (retired record)","PubChem SID":"SID134328442","mean z-score":0.45,"z-score, replicate A":0.42,"z-score, replicate B":0.28,"z-score, replicate C":0.65,"Outcome":"inactive"}
{"Gene":"SLAMF1","PubChem SID":"SID134323362","mean z-score":-1.15,"z-score, replicate A":-1.15,"z-score, replicate B":-1.18,"z-score, replicate C":-1.1,"Outcome":"inactive"}
{"Gene":"AUNIP","PubChem SID":"SID134318438","mean z-score":0.56,"z-score, replicate A":0.75,"z-score, replicate B":0.42,"z-score, replicate C":0.52,"Outcome":"inactive"}
{"Gene":"PHF21A","PubChem SID":"SID134312113","mean z-score":0.14,"z-score, replicate A":0.34,"z-score, replicate B":0.08,"z-score, replicate C":-0.01,"Outcome":"inactive"}

Ordered by “z-score, replicate C” (lowest first): some entries from above
{"Gene":"TPD52","PubChem SID":"SID134323661","mean z-score":-0.79,"z-score, replicate A":-0.18,"z-score, replicate B":-1.03,"z-score, replicate C":-1.17,"Outcome":"inactive"}
{"Gene":"ACTR3","PubChem SID":"SID134316374","mean z-score":-0.18,"z-score, replicate A":-0.38,"z-score, replicate B":-0.07,"z-score, replicate C":-0.1,"Outcome":"inactive"}
{"Gene":"PDE8B","PubChem SID":"SID134312700","mean z-score":0.04,"z-score, replicate A":0.27,"z-score, replicate B":-0.12,"z-score, replicate C":-0.05,"Outcome":"inactive"}
{"Gene":"MRPS7","PubChem SID":"SID134317800","mean z-score":2.24,"z-score, replicate B":1.97,"z-score, replicate C":2.52,"Outcome":"inactive"}

Additional reagents follow:
{"Gene":"FTO","PubChem SID":"SID134310296","mean z-score":-0.36,"z-score, replicate A":-0.44,"z-score, replicate B":-0.24,"z-score, replicate C":-0.38,"Outcome":"inactive"}
{"Gene":"HS6ST3","PubChem SID":"SID134319980","mean z-score":0.05,"z-score, replicate A":0.25,"z-score, replicate B":-0.1,"z-score, replicate C":0,"Outcome":"inactive"}
{"Gene":"LOC149709 (retired record)","PubChem SID":"SID134325973","mean z-score":-1.34,"z-score, replicate A":-1.37,"z-score, replicate B":-1.23,"z-score, replicate C":-1.41,"Outcome":"inactive"}
{"Gene":"SH3GLB1","PubChem SID":"SID134321047","mean z-score":1.27,"z-score, replicate A":0.97,"z-score, replicate B":0.7,"z-score, replicate C":2.13,"Outcome":"inactive"}
{"Gene":"DCXR","PubChem SID":"SID134313687","mean z-score":0.5,"z-score, replicate A":0.38,"z-score, replicate B":0.54,"z-score, replicate C":0.59,"Outcome":"inactive"}
{"Gene":"LOC389695 (retired record)","PubChem SID":"SID134327949","mean z-score":0.02,"z-score, replicate A":0.12,"z-score, replicate B":0.06,"z-score, replicate C":-0.11,"Outcome":"inactive"}
{"Gene":"ADGRV1","PubChem SID":"SID134311095","mean z-score":-0.32,"z-score, replicate A":-0.15,"z-score, replicate B":-0.71,"z-score, replicate C":-0.1,"Outcome":"inactive"}
